In PMC6928861:

What was measured:
P10636 [1] = test: native MS; 35 µM Tau with 1.1 mM CaCl2, pH 7.4, 1 mM DTT, 0.5 mg/mL heparin sodium salt, 50 mM NaCl, 1 mM PMSF, 37 °C, agitation 800 rpm, 0 h to 168 h; analysed in 100 mM ammonium bicarbonate pH 7.2; peak fitting and deconvolution into monomers, 2-9-mers and >10-mers
P10636 [2] = test: native MS; 35 µM Tau with 1.1 mM ZnCl2, pH 7.4, 1 mM DTT, 0.5 mg/mL heparin sodium salt, 50 mM NaCl, 1 mM PMSF, 37 °C, agitation 800 rpm, 0 h to 168 h; analysed in 100 mM ammonium bicarbonate pH 7.2; peak fitting and deconvolution into monomers, 2-9-mers and >10-mers

Substance: full-length human Tau protein (hTau441)
- percent of overall species that are larger aggregates, with Ca^2+, at the end point (168 h) (P10636 [1]): reaching ~15% of the overall species at the end point
- percent of total species that are larger aggregates, with Zn^2+, along the reaction (to 168 h) (P10636 [2]): The formation of larger Tau aggregates steadily increases up to 35% of total species along the reaction
